Anti-infective test results gathered from many reports (values: NIAID ChemDB through PubChem).

All rows: whole-cell or culture tests; species: Aspergillus fumigatus

MIC50, MIC90 and the like: level of inhibition, or share of isolates inhibited. Zones are inhibition diameters on agar. Blank or dashed fields: not listed here. Two numbers with a dash give a range or band. Conditions beyond the fields shown may differ between rows. Inhibition is in % at the dose shown (toxicity tests: loss of growth or viability).

{"compound": "OC[C@H]1O[C@@H](n2nc(-c3cccnc3)n(/N=C/c3ccccc3)c2=S)[C@H](O)[C@@H](O)[C@@H]1O", "method": "agar diffusion / agar", "read-out": "zone", "tested at": "5 mg/mL", "result": "1–5 mm"}
{"compound": "CCC(C)n1ncn(-c2ccc(N3CCN(c4ccc(OC[C@H]5CO[C@](Cn6cncn6)(c6ccc(Cl)cc6Cl)O5)cc4)CC3)cc2)c1=O", "strain": "NFI 0159", "read-out": "MFC", "result": "0.25 µg/mL"}
{"compound": "COc1cc(C(C)=O)ccc1O", "method": "agar", "read-out": "MIC50", "result": "357 µg/mL"}
{"compound": "OC[C@H]1O[C@@H](n2[nH]c(-c3cccnc3)nc2=S)[C@H](O)[C@@H](O)[C@@H]1O", "method": "agar diffusion / agar", "read-out": "zone", "tested at": "2.5 mg/mL", "result": "0 mm"}
{"compound": "C[C@H]1[C@H](O)[C@@H](C)/C=C/C=C/C=C/C=C/C=C/C=C/C=C/[C@H](O[C@@H]2O[C@H](C)[C@@H](O)[C@H](N)[C@@H]2O)C[C@@H]2O[C@](O)(C[C@@H](O)C[C@@H](O)CC[C@H](O)[C@@H](O)C[C@@H](O)CC(=O)O[C@H]1C)C[C@H](O)[C@H]2C(=O)O", "strain": "W73355", "method": "agar", "read-out": "inhibition", "tested at": "1 µg/mL", "result": "20%"}
{"compound": "Cc1ccc(C(C)C)cc1O", "method": "agar", "read-out": "MIC50", "result": "37 µg/mL"}
{"compound": "CC(=O)OC[C@H]1O[C@@H](n2[nH]c(-c3ccccc3)[n+](/N=C/c3ccc(Cl)cc3)c2=S)[C@H](OC(C)=O)[C@@H](OC(C)=O)[C@@H]1OC(C)=O", "method": "agar diffusion / agar", "read-out": "zone", "tested at": "2.5 mg/mL", "result": "1–5 mm"}
{"compound": "CCC(C)n1ncn(-c2ccc(N3CCN(c4ccc(OC[C@H]5CO[C@](Cn6cncn6)(c6ccc(Cl)cc6Cl)O5)cc4)CC3)cc2)c1=O", "strain": "60 isolates", "read-out": "Geometric mean MIC", "result": "0.63 µg/mL"}
{"compound": "COc1cc(C(=O)O)ccc1O", "method": "agar", "read-out": "MIC100", "result": ">1000 µg/mL"}
{"compound": "CC(=O)OC[C@H]1O[C@@H](Sc2nnc(-c3cccnc3)n2/N=C/c2ccc(C)cc2)[C@H](OC(C)=O)[C@@H](OC(C)=O)[C@@H]1OC(C)=O", "method": "agar diffusion / agar", "read-out": "zone", "tested at": "1 mg/mL", "result": "1–5 mm"}
{"compound": "Nc1[nH]c(=O)ncc1F", "read-out": "MIC50", "result": ">64 µg/mL"}
{"compound": "COc1ccc(/C=N/n2c(S[C@@H]3O[C@H](COC(C)=O)[C@@H](OC(C)=O)[C@H](OC(C)=O)[C@H]3OC(C)=O)nnc2-c2cccnc2)cc1", "method": "agar diffusion / agar", "read-out": "zone", "tested at": "1 mg/mL", "result": "1–5 mm"}
{"compound": "CCc1ccc(O)cc1", "method": "agar", "read-out": "MIC100", "result": "206 µg/mL"}
{"compound": "CCC(C)CC(C)CCCCCCCCC(=O)N[C@H]1C[C@@H](O)[C@H](NCCN)NC(=O)[C@@H]2[C@@H](O)CCN2C(=O)[C@H]([C@H](O)CCN)NC(=O)[C@H]([C@H](O)[C@@H](O)c2ccc(O)cc2)NC(=O)[C@@H]2C[C@@H](O)CN2C(=O)[C@H]([C@@H](C)O)NC1=O", "read-out": "MIC50", "result": "0.06–0.5 µg/mL"}
{"compound": "CC(=O)OC[C@H]1O[C@@H](n2nc(-c3cccnc3)n(/N=C/c3ccc(Cl)cc3)c2=S)[C@H](OC(C)=O)[C@@H](OC(C)=O)[C@@H]1OC(C)=O", "method": "agar diffusion / agar", "read-out": "zone", "tested at": "2.5 mg/mL", "result": "1–5 mm"}
{"compound": "O=C(O)c1cc(O)c(O)c(O)c1", "method": "agar", "read-out": "MIC50", "result": ">1000 µg/mL"}
{"compound": "C[C@@H](c1ncncc1F)[C@](O)(Cn1cncn1)c1ccc(F)cc1F", "read-out": "MIC50", "result": "0.25–1 µg/mL"}
{"compound": "C[C@H]1[C@H](O)[C@@H](C)/C=C/C=C/C=C/C=C/C=C/C=C/C=C/[C@H](O[C@@H]2O[C@H](C)[C@@H](O)[C@H](N)[C@@H]2O)C[C@@H]2O[C@](O)(C[C@@H](O)C[C@@H](O)CC[C@H](O)[C@@H](O)C[C@@H](O)CC(=O)O[C@H]1C)C[C@H](O)[C@H]2C(=O)O", "strain": "NFI 4001", "read-out": "MFC", "result": "1 µg/mL"}
{"compound": "CC(=O)OC[C@H]1O[C@@H](n2[nH]c(-c3cccnc3)nc2=S)[C@H](OC(C)=O)[C@@H](OC(C)=O)[C@@H]1OC(C)=O", "method": "agar diffusion / agar", "read-out": "zone", "tested at": "1 mg/mL", "result": "1–5 mm"}
{"compound": "C/C=C/c1ccc(O)c(OC)c1", "method": "agar", "read-out": "MIC50", "result": "71 µg/mL"}
{"compound": "C[C@H]1[C@H](O)[C@@H](C)/C=C/C=C/C=C/C=C/C=C/C=C/C=C/[C@H](O[C@@H]2O[C@H](C)[C@@H](O)[C@H](N)[C@@H]2O)C[C@@H]2O[C@](O)(C[C@@H](O)C[C@@H](O)CC[C@H](O)[C@@H](O)C[C@@H](O)CC(=O)O[C@H]1C)C[C@H](O)[C@H]2C(=O)O", "read-out": "MIC50", "result": "0.25–4 µg/mL"}
{"compound": "CNCCC(Oc1ccc(C(F)(F)F)cc1)c1ccccc1", "strain": "10 clinical isolates", "read-out": "MFC", "result": "39–156 µg/mL"}

A second listing of 2 rows from above:

| compound | strain | method | read-out | tested at | result |
|---|---|---|---|---|---|
| CCc1ccc(O)cc1 | - | agar | MIC100 | - | 206 µg/mL |
| COc1cc(C(=O)O)ccc1O | - | agar | MIC100 | - | >1000 µg/mL |